From US6001988

molecular target: Concanavalin A (succinylated) (Canavalia ensiformis) (UniProt P02866); test: filter binding; conditions: 2'-NH2 all C and U; <5% bound at 1 uM protein; purified native protein; protein details: succinylated, E Y Laboratories; label: 32P

Row | Sequence | Kd [µM]
1 | GGGAAAAGCGAAUCAUACACAAGACGGCUGUGUGGUGUUGGAGCGUCAUAGUAGGAGUCGUCACGAACCAAGGCGCUCCGCCAGAGACCAACCGAGAA [11.24] | > 20
2 | GGGAAAAGCGAAUCAUACACAAGAAAGGGAUGGGAUUGGGACGAGCGGCCAAGACUCGGCGGGAACGAAGGGUCCGCUCCGCCAGAGACCAACCGAGAA [6.8] | > 20
3 | GGGAAAAGCGAAUCAUACACAAGAUUGGUCGUACUGGACAGAGCCGUGGUAGAGGGAUUGGGACAAAGUGUCAGCUCCGCCAGAGACCAACCGAGAA [11.20] | > 20

The exact form of at least one protein or probe is not confirmed.
